Human monoclonal antibodies against the spike receptor-binding domain (heavy:light variable regions). IC50 against pseudoviruses bearing the spike of naturally observed variants; lower = stronger; >10 µg/ml means not reached at the top dose. No active / inactive call. The stated detection limit is 0.0005 µg/ml; values near or below 0.001 µg/ml lie at the floor of the assay.
B1: BD56-1439 (protein)
chain 1: QVQLVESGGGLVKPGGSLRLSCAVSGFIFSDYSMSWIRQAPGKGLEWISYIPDTSSYTDYADSVKGRFTISRDNDKNSLYLQMDSLRAEDTAVYYCARVSQIYCSGGSCYSGNYFDYWGQGTLVTVSS
chain 2: ETVMTQSPATLSVSPGERVTLSCRASQHISSNLAWYQQKPGQAPRLLIYSASTRATSIPARFSGSGSGTEFSLTISSLQSADFALYYCLQYDNWPGTFGQGTKLEIK
B2: BD56-1422 (protein)
chain 1: QVQLVESGGGVVQPGRSLRLSCAASGFTFTSYGMHWVRQAPGKGLEWVALISYDGSNKFYADSVRGRFTISRDNSKNTLYLQMDSLRADDTAVYYCAKDGPWEFRSFDWLGSPYYFHYWGQGALVTVSS
chain 2: QSVLTQPPSVSAAPGQKVSISCSGSNSNIGNNYVSWYQQLPTTAPKLLIYDNDKRPSGIPDRFSGSKSGTSVTLGITGLQTGDEADYYCGTWDSSLSTWVFGGGTKLTVL
B3: BD56-1428 (protein)
chain 1: QVQLVESGGGVVQPGRSLRLSCAASGFTFRNYGMHWVRQAPGKGLEWVAVIWNDGSNKYYGDSVKGRFTISRDNSKNTLYLQMNSLRAEDTAVYYCARDYGVGATMEDYFDYWGQGTLVTVSS
chain 2: QSVLTQPPSASGTPGQRVTISCSGSSSNIGINYVYWYYHLPGTAPKLLIYKNNQRPSGVPDRFSGSKSGTSASLAIGGLRSEDEADYYCAAWDDSLGGWVFGGGTKLTVL
B4: BD56-1423 (protein)
chain 1: EMQLVESGGGVVQPGGSLRLSCAASGFTFNYYAMHWVRQAPGKGLEWISLISGDGDSSYYADSVKGRFTISRDNSKNSLYLQMNSLRTEDTALYYCAKDCIAAPTYYIDVWGKGTTVTVSS
chain 2: DIQMTQSPSSLSASVGDRVTITCQASQDISNYLNWYQQKPGKAPKLLIYDASNLETGVPSRFSGSGSGTVFTFTISSLQPEDIATYYCQQYDHHPAITFGGGTKVEIK
B5: BD56-1436 (protein)
chain 1: QVQLVESGGGVVQPGRSLRLSCAASGFTFSSYAMHWVRQAPGKGLEWVAVILDDGSGKFYADSVKGRFTISRDNSKNTLYLQMNSLRPEDTAIYYCARDSSSVQSLVSWFDPWGQGSLVTVSS
chain 2: DIQMTQSPSSLSASVGDRVTITCRASQSIGTYLNWYQQKPGKAPKLLIYVASSLQSGVPSRFSGSGSGTDFTLTISSLQPEDFATYYCQQSYSSPPWTFGQGTKLQIK
B6: BD56-1429 (protein)
chain 1: EVQLLESGGGLVQPGGSLRLSCAASGFTFSSYAMNWVRQAPGKGLEWVSGISAYGSSTYHADSVKGRFTISRDNSKNTLYLQMNSLRAADTAVYYCAKDKYPGGPYYYMDVWGEGTTVTVSS
chain 2: DIQMTQSPSSLSASVGDRVTITCQASQDISNSLNWYRQKPGKAPKLLIYDASNLETGVPSRFSGSGSGTDFTFTISSLQPEDIATYYCQQYDNLPITFGHGTRLEIK
B7: COV2-2381 (protein)
chain 1: QMQLVQSGPEVKKPGTSVKVSCKASGFTFTSSAVQWVRQARGQRLEWIGWIAVGSGNTNYAQKFQERVSITRDMSTSTAYMELSSLRSEDTAVYYCAAPYCSRTSCHDAFDIWGQGTKVTVSS
chain 2: EVVLTQSPGTLSLSPGERATLSCRASQSVSSSYLAWYQQKPGQAPRLLIYGASSRATGIPDRFSGSGSGTDFTLTISRLEPEDFAVYHCQHFGSSSQWTFGQGTKVEIK

Target: SARS-CoV-2 Omicron BA.1 spike pseudovirus
Experiment: pseudovirus neutralization IC50; higher = weaker neutralization
Experimental: (§1)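 Single-round VSV luciferase pseudovirus mixed with antibody dilutions for 1 h and put on Huh-7 cells for about a day; IC50 from the dose curve.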

Row | Binder | pseudovirus neutralization IC50 [µg/mL]
1 | B1 | 0.00261
2 | B2 | 0.93
3 | B3 | 0.537
4 | B4 | > 10
5 | B5 | > 10
6 | B6 | > 10
7 | B7 | 0.187

Target: SARS-CoV-2 Omicron BA.2 spike pseudovirus
Experiment: as above
Experimental: as §1

Row | Binder | pseudovirus neutralization IC50 [µg/mL]
8 | B1 | 0.00374
9 | B2 | 0.00266
10 | B3 | 0.925
11 | B4 | > 10
12 | B5 | > 10
13 | B6 | > 10
14 | B7 | 1.09

Target: SARS-CoV-2 Omicron BA.2.75 spike pseudovirus
Experiment: as above
Experimental: as §1

Row | Binder | pseudovirus neutralization IC50 [µg/mL]
15 | B1 | 0.00531
16 | B2 | 0.34
17 | B3 | 0.495
18 | B4 | > 10
19 | B5 | > 10
20 | B6 | > 10
21 | B7 | 0.0244

Target: SARS-CoV-2 Omicron BA.5 spike pseudovirus
Experiment: as above
Experimental: as §1

Row | Binder | pseudovirus neutralization IC50 [µg/mL]
22 | B1 | > 10
23 | B2 | 0.113
24 | B3 | 0.498
25 | B4 | > 10
26 | B5 | > 10
27 | B6 | > 10
28 | B7 | > 10

Target: SARS-CoV-2 Omicron BQ.1.1 spike pseudovirus
Experiment: as above
Experimental: as §1

Row | Binder | pseudovirus neutralization IC50 [µg/mL]
29 | B1 | > 10
30 | B3 | 2.61
31 | B4 | > 10
32 | B5 | > 10
33 | B6 | > 10
34 | B7 | > 10

Target: SARS-CoV-2 Omicron XBB spike pseudovirus
Experiment: as above
Experimental: as §1

Row | Binder | pseudovirus neutralization IC50 [µg/mL]
35 | B1 | > 10
36 | B3 | 2.64
37 | B4 | > 10
38 | B5 | > 10
39 | B6 | > 10
40 | B7 | > 10

Target: SARS-CoV-2 early D614G spike pseudovirus
Experiment: as above
Experimental: as §1

Row | Binder | pseudovirus neutralization IC50 [µg/mL]
41 | B1 | 0.00213
42 | B2 | 0.0036
43 | B3 | 1.3
44 | B4 | > 10
45 | B5 | > 10
46 | B6 | > 10
47 | B7 | 0.0079

From the supplement of paper PMC9931576
